Paper PMC3151279, “Cross-Reactivity of Anthrax and C2 Toxin: Protective Antigen Promotes the Uptake of Botulinum C2I Toxin into Human Endothelial Cells” (2011)

Target: C2II channel, trypsin-activated binding component of Clostridium botulinum C2 toxin (Clostridium botulinum)

anthrax edema factor (from UniProt P40136 34-800)
Ka: 7.7e+07 M⁻¹

anthrax lethal factor (from UniProt P15917 34-809)
Ka: 2e+07 M⁻¹ | Kd: 49.9 nM
